Measured values from several laboratories, pooled; numbers as filed in NIAID ChemDB.

Common to all: growth or infection tests; organism: Hepatitis C virus; endpoint: EC50

Rows are shuffled and stem from different studies.

SMILES	strain or isolate	method	conditions	value
CC1(C)CC(=O)C2=C(C1)Nc1c(O)cccc1NC2c1ccco1	1b	luciferase / reporter gene / replicon	-	57.5 µM
NS(=O)(=O)c1ccc(CNc2nc(NCC(F)(F)F)c3nc(-c4ccc(F)c(NS(=O)(=O)C5CC5)c4)ccc3n2)cc1	-	replicon	-	<0.1 µM
CCCCCCCCOc1ccc(N(C(=O)COC(C)=O)c2nc(-c3cccnc3)cs2)cc1	-	-	-	<1 µM
Nc1cc(Cn2c(C(=O)O)c(-c3ccccc3F)c3c4ccccc4ccc32)ccn1	-	replicon	-	1–10 µM
CC1CCC(C(=O)N(c2cc(-c3ccc(NC(=O)c4ccco4)s3)sc2C(=O)O)C(C)C)CC1	1a	replicon	-	>0.5 µM
CC(C)(c1ccccc1)c1nc(-c2cn(C(C)(C)c3ccccc3)c3cc(N4CCOCC4)c(F)cc3c2=O)no1	1b	replicon	-	>10 µM
CC(C)N(C(=O)c1ccc(Cl)cc1Cl)c1cc(-c2ccc(-c3cn4ccccc4n3)cc2)sc1C(=O)O	1a	luciferase / replicon	-	0.1–0.5 µM
CCc1ccc(OCc2ccc(C3C4=C(CC(C)(C)CC4=O)Nc4c(O)cccc4N3C(=O)C(C)C)o2)cc1	1b	luciferase / reporter gene / replicon	-	1.05 µM
COc1cc2c(=O)c(-c3noc(Cc4ccccc4)n3)cn(Cc3ccc(Cl)cc3)c2cc1OC	1b	replicon	-	>10 µM
CC1CCC(C(=O)N(c2cc(-c3ccc(NC(=O)c4cscn4)cc3)sc2C(=O)O)C2COCOC2)CC1	1b	replicon	-	<0.5 µM
COc1cc2c(=O)c(-c3noc(C4(c5ccccc5)CC4)n3)cn(Cc3ccc(Cl)cc3)c2cc1OC	1b	replicon	-	>10 µM
CC(C)COc1ccc(N(C(N)=O)c2nc(-c3ccccn3)cs2)cc1C(F)(F)F	-	-	-	<1 µM
COCCNc1nc(NCC(F)(F)F)c2nc(-c3ccc(F)cc3)ccc2n1	-	replicon	-	<0.1 µM
CN1CCN(c2cc3c(cc2F)c(=O)c(-c2noc(CN4CCCCC4)n2)cn3Cc2ccc(Cl)cc2)CC1	1b	replicon	-	<10 µM
COc1nc(N)nc2c1ncn2[C@@H]1O[C@H](COP(=O)(N[C@@H](C)C(=O)OC(C)C)Oc2ccccc2)[C@@H](O)[C@@]1(C)F	2a	replicon	7 d	0.011 µM
CC(C)N(C(=O)c1ccc(Cl)cc1F)c1cc(-c2ccc(-c3cc4ncccn4n3)cc2)sc1C(=O)O	1a	luciferase / replicon	-	0.01–0.05 µM
Nc1nc2ccc(Cn3c(C(=O)O)c(-c4ccc[nH]c4=O)c4c5occc5c(F)cc43)cc2[nH]1	-	replicon	-	<0.5 µM
CC1(C)CC(=O)C2=C(C1)Nc1c(O)cccc1N(C(=O)CCC(=O)N1CCC(N3CCOCC3)CC1)[C@@H]2c1ccc(OCc2ccccc2)cc1Cl	1b	luciferase / reporter gene / replicon	-	25.88 µM
CCCCCCCCCc1ccc(N(C(=O)OCCOP(=O)(O)O)c2nc(-c3cccnc3)c(F)s2)cc1C(F)(F)F	-	-	-	<1 µM
O=C1CN(c2cc3c(cc2F)c(=O)c(-c2noc(Cc4ccc(F)cc4)n2)cn3Cc2ccc(C(F)(F)F)cc2F)CCN1	1b	replicon	-	<0.5 µM
CC1CCC(C(=O)N(c2cc(-c3ccc(NC(=O)c4ccn(C)n4)cc3)sc2C(=O)O)C(C)C)CC1	1b	replicon	-	<0.5 µM
C[C@H](O)C(=O)Nc1ccc(-c2ccc3nc(NCc4ccc(S(N)(=O)=O)cc4)nc(NCC(F)(F)F)c3n2)cc1	-	replicon	-	<0.1 µM
CC#Cc1ccc(C(=O)N2c3cccc(O)c3NC3=C(C(=O)CC(C)(C)C3)[C@@H]2c2ccc(OCc3ccccc3)cc2F)nc1	1b	luciferase / reporter gene / replicon	-	1.07 µM
Cc1ccc(C(=O)N(c2cc(-c3ccc(-c4cc5ncccn5n4)cc3)sc2C(=O)O)C(C)C)c(C)c1	1b	replicon / ELISA	-	0.1–0.5 µM
CCCCCCOc1ccc(N(C(N)=O)c2nc(-c3ccccn3)cs2)cc1	-	-	-	<1 µM
CC1(C)CC(=O)C2=C(C1)Nc1c(O)cccc1N(C(=O)c1ccon1)C2c1ccc(OCc2ccccc2)cc1F	1b	luciferase / reporter gene / replicon	-	0.88 µM
CCCCCOc1ccc(N(C(N)=O)c2nc(-c3cccnc3)cs2)cc1F	-	-	-	<1 µM
CC(C)N(C(=O)c1ccc(Cl)cc1Cl)c1cc(-c2ccc(-c3cc4ncccc4o3)cc2)sc1C(=O)O	1a	luciferase / replicon	-	0.05–0.1 µM
CC1CCC(C(=O)N(CC(F)(F)F)c2cc(-c3ccc(NC(=O)c4cscn4)cc3)sc2C(=O)O)CC1	1a	replicon	-	<0.5 µM
NCc1cccc(Cn2c(C(=O)O)c(-c3ccc[nH]c3=O)c3c4occc4c(F)cc32)c1	-	replicon	-	<0.5 µM
CCC1(C)CC(=O)C2=C(C1)Nc1c(O)cccc1N(C(=O)C(C)C)C2c1ccc(OCc2ccccc2)cc1F	1b	luciferase / reporter gene / replicon	-	1.26 µM
CC(C)Nc1nc(NCCN2CCOCC2)nc2ccc(-c3ccc(F)cc3)nc12	-	replicon	-	0.25–2 µM
CCCCCOc1ccc(N(C(=O)OC)c2nc(-c3ccncc3)cs2)cc1C(F)(F)F	-	-	-	<1 µM
CS(=O)(=O)CCNc1nc(NCc2ccc(S(N)(=O)=O)cc2)nc2ccc(-c3ccc(NC(=O)C4(O)CC4)cc3)nc12	-	replicon	-	0.1–0.25 µM
Cc1nc(C(=O)N2c3cccc(O)c3NC3=C(C(=O)CC(C)(C)C3)C2c2ccc(OCc3ccccc3)cc2F)c(C(F)(F)F)o1	1b	luciferase / reporter gene / replicon	-	0.43 µM
NC(=O)COc1ccc2c(c1)S(=O)(=O)N=C(c1c(O)c3cc(F)ccc3n(CCC3CC3)c1=O)N2	1a 45996	replicon	-	0.97 µM
Cc1cc(Br)ccc1C(=O)N(c1cc(-c2ccc(-c3cn4ccccc4n3)cc2)sc1C(=O)O)C(C)C	1a	luciferase / replicon	-	0.1–0.5 µM
CN(C)c1cc2c(cc1F)c(=O)c(-c1noc(C(C)(C)c3ccccc3)n1)cn2Cc1ccc(F)cc1	1b	replicon	-	>10 µM
CS(=O)(=O)NC(=O)c1c(-c2ccc[nH]c2=O)c2c3occc3c(F)cc2n1Cc1ccc2nc(C(F)(F)F)[nH]c2c1	-	replicon	-	<0.5 µM
CCCCOc1ccc(N(C(N)=O)c2nc(-c3ccc(C)nc3)cs2)cc1C(F)(F)F	-	-	-	<1 µM
O=C(O)c1c(-c2ccc[nH]c2=O)c2c3ccccc3c(F)cc2n1Cc1ccccc1F	-	replicon	-	1–10 µM
CC1CCC(C(=O)N(c2cc(-c3ccc(NC(=O)c4cscn4)cn3)sc2C(=O)O)C(C)C)CC1	1a	replicon	-	>0.5 µM
COc1ccnc(C(=O)N2c3cccc(O)c3NC3=C(C(=O)CC(C)(C)C3)[C@@H]2c2ccc(OCc3ccccc3)cc2F)c1	1b	luciferase / reporter gene / replicon	-	1.09 µM
O=C(O)c1c(-c2ccc[nH]c2=O)c2c3occ(Cl)c3ccc2n1Cc1cc(F)ccc1F	-	replicon	-	<0.5 µM

For reference, 6 entries again:

SMILES | strain or isolate | method | conditions | value
COc1cc2c(=O)c(-c3noc(Cc4ccccc4)n3)cn(Cc3ccc(Cl)cc3)c2cc1OC | 1b | replicon | - | >10 µM
Nc1cc(Cn2c(C(=O)O)c(-c3ccccc3F)c3c4ccccc4ccc32)ccn1 | - | replicon | - | 1–10 µM
Cc1cc(Br)ccc1C(=O)N(c1cc(-c2ccc(-c3cn4ccccc4n3)cc2)sc1C(=O)O)C(C)C | 1a | luciferase / replicon | - | 0.1–0.5 µM
CCCCCCCCCc1ccc(N(C(=O)OCCOP(=O)(O)O)c2nc(-c3cccnc3)c(F)s2)cc1C(F)(F)F | - | - | - | <1 µM
CC1(C)CC(=O)C2=C(C1)Nc1c(O)cccc1N(C(=O)c1ccon1)C2c1ccc(OCc2ccccc2)cc1F | 1b | luciferase / reporter gene / replicon | - | 0.88 µM
CS(=O)(=O)CCNc1nc(NCc2ccc(S(N)(=O)=O)cc2)nc2ccc(-c3ccc(NC(=O)C4(O)CC4)cc3)nc12 | - | replicon | - | 0.1–0.25 µM

ECn: concentration that inhibits the pathogen or its effect by n%. Blank or dashed fields: not listed here. Two numbers with a dash give a range or band.